# PSTVd loop 6 mutant pool in Nicotiana benthamiana

The pool varies loop 6 of the PSTVd intermediate strain in the pattern UNNNCGNNNG; wild type is UGACCGCGAG (upper and lower strand joined, each 5' to 3', the first 5 letters being the upper strand, closing pairs included).

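A pool of all variants was put on leaves of three Nicotiana benthamiana plants. Samples came from the inoculated region at 5 days, the leaf margin at 10 and upper systemic leaves at 12.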

Numbers give reads per thousand; 0 = not seen among the reads, higher = more abundant.
Each value is the mean of three plants.
"Pool" is the share in the plasmid pool used as inoculum, on the same scale.
The inoculated region was read from the minus strand, the other sites from the plus strand.
With 36,220-57,551 reads a sample, very low values are single reads.
For reference, wild type rose from 20.7 per thousand in the pool to 195, 198, 203 (inoculated region), 629, 591, 734 (leaf margin) and 942, 870, 868 (systemic leaves).
The authors trace changes outside the varied positions to PCR and sequencing errors or to mutation in the plant; presence does not show that a variant is infectious alone.

| sequence | pool | inoculated region | leaf margin | systemic leaves |
|---|---|---|---|---|
| UACACGAGCG | 0.157 | 0.0657 | 0.00920 | 0 |
| UACUCGGGAG | 0.235 | 0.107 | 0 | 0 |
| UACUCGUAUG | 0.275 | 0.0775 | 0.0537 | 0 |
| UAGGCGACGG | 0.183 | 0.0956 | 0.00920 | 0 |
| UAGUCGAAAG | 0.170 | 0.0784 | 0.0155 | 0 |
| UAGUCGGUAG | 0.275 | 0.0898 | 0.00773 | 0 |
| UAUACGCAUG | 0.301 | 0.102 | 0 | 0 |
| UAUACGUACU | 0.0131 | 0 | 0 | 0 |
| UAUCCGACGG | 0.209 | 0.0477 | 0.0232 | 0 |
| UAUGCGGCGG | 0.235 | 0.0537 | 0 | 0 |
| UCAACGUGUG | 0.131 | 0.0710 | 0.00920 | 0 |
| UCAUCGGUCG | 0.301 | 0.0827 | 0 | 0 |
| UCCCCGUUCG | 0.261 | 0.0894 | 0.00920 | 0 |
| UCUUCGCUUG | 0.405 | 0.0837 | 0.00841 | 0 |
| UGAGCGACAG | 0.261 | 0.125 | 0 | 0 |
| UGAUCGCCGG | 0.170 | 0.0704 | 0 | 0 |
| UGCCCGUGAG | 0.183 | 0.137 | 0 | 0 |
| UGGACGGAGG | 0.183 | 0.0949 | 0 | 0 |
| UGGACGGCCA | 0.0131 | 0 | 0 | 0 |
| UGGACGUCUG | 0.235 | 0.113 | 0.00920 | 0 |
| UGGCCGUUGG | 0.366 | 0.188 | 0.0155 | 0.00684 |
| UGGGCGAUAG | 0.261 | 0.137 | 0.0788 | 0 |
| UGGUCGUACG | 0.275 | 0.0837 | 0 | 0 |
| UUAACGGACG | 0.235 | 3.69 | 1.20 | 0.458 |
| UUAACGGCGG | 0.183 | 0.0959 | 0 | 0 |
| UUACCGUUUG | 0.418 | 0.119 | 0.00920 | 0 |
| UUCACGGGCG | 0.183 | 0.0708 | 0 | 0 |
| UUCGCGCUAG | 0.131 | 0.0831 | 0.0155 | 0 |
| UUCGCGGGCG | 0.170 | 0.162 | 0.0169 | 0 |
| UUGACGACUG | 0.418 | 0.105 | 0 | 0 |
| UUGCCGUUCG | 0.458 | 0.0661 | 0.0169 | 0 |
| UUGGCGGGUG | 0.261 | 0.0889 | 0.0155 | 0.00599 |
| UUGGCGUGUG | 0.445 | 0.0822 | 0 | 0 |
| UUGUCGUGAG | 0.340 | 0.121 | 0.00773 | 0 |
| UUUUCGGAAG | 0.0784 | 0.0591 | 0 | 0 |

The opening 2 entries, copied out:

UACACGAGCG (pool 0.157): inoculated region 0.0657; leaf margin 0.00920; systemic leaves 0.
UACUCGGGAG (pool 0.235): inoculated region 0.107; leaf margin 0; systemic leaves 0.

Data from the supplement of Wu et al. 2024, doi:10.1371/journal.ppat.1012142.